Source: paper PMC4257840 (Journal of Medicinal Chemistry, 2014)

Protein sequences, listed by entry. Tags and fused reporters are not part of them. Residues count along the entry.
UniProt P08176, 99-320 limits assumed: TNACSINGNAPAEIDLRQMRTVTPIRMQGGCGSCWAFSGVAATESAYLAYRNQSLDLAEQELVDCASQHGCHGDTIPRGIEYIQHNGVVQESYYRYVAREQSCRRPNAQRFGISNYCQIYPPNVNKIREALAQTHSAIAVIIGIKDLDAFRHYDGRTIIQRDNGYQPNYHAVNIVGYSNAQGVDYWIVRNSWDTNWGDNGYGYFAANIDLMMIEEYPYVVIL

Biological target: Der p 1 (Dermatophagoides pteronyssinus, UniProt P08176)

CC(NC(=O)C(Cc1ccccc1)NC(=O)c1ccccc1)C(=O)NCC(=O)C(=O)NCc1ccccc1 (centres unmarked)
drop in Der p 1 potency on removal of the P1 substituent: 10–20 fold | IC50 (read-out: IC50 versus Der p 1, tested as mixed diastereomers): 170 nM
